Measured values from several laboratories, pooled; numbers as filed in NIAID ChemDB.

Shared fields: cytotoxicity tests; cell line: MT-2; endpoint: CC50

CCn: concentration that lowers growth or viability of the cells by n%.

compound,read by,value
CC(=O)Oc1ccc(C(=O)N2CCN(C(=O)C(=O)c3c[nH]c4ccccc34)CC2)cc1,XTT,>10 µM
Cc1c(CC(=O)N[C@@H](Cc2ccccc2)C(=O)N(C)c2ccc3c(c2)OCO3)c(C(C)C)nn1CCO,ATP,>20 µM
CC(C)[C@H](NC(=O)[C@@H](N)Cc1ccccc1)C(=O)N[C@@H](Cc1ccccc1)C(=O)O,,42.96 µg/mL
O=C(/C=C/c1ccc(O)c(O)c1)NCCCC(NC(=O)/C=C/c1ccc(O)c(O)c1)C(=O)O,neutral red,>38 µM
Cc1nc2sc3c(c2c(-c2ccc4ncn(C)c4c2)c1C(OC(C)(C)C)C(=O)O)CCCC3,,>20 µM
Nc1ccn([C@H]2CC[C@@H](CO)O2)c(=O)n1,,>10 µg/mL
CN(C(=O)[C@H](Cc1cc(F)cc(F)c1)NC(=O)CS(=O)(=O)N[C@@H](Cc1cc(F)cc(F)c1)C(=O)N(C)c1ccc2nccnc2c1)c1ccc2nccnc2c1,XTT,100 µM
CN(C(=O)[C@H](Cc1ccccc1)NC(=O)Cc1cccc(CCO)c1)c1ccc2c(c1)OCO2,ATP,>20 µM
O=C(C(=O)N1CCN(C(=O)c2ccccc2)CC1)c1c[nH]c2cc(Cl)ccc12,XTT,>10 µM
O=C(/C=C/c1cc(O)c(O)c(O)c1)NCCCC[C@H](NC(=O)/C=C/c1cc(O)c(O)c(O)c1)C(=O)O,neutral red,>39 µM
CSCC[C@H](N)C(=O)N[C@@H](CC(C)C)C(=O)N[C@@H](Cc1ccccc1)C(=O)N[C@H](C(=O)N[C@@H](Cc1ccccc1)C(=O)N1CCC[C@H]1C(=O)N[C@@H](CC(=O)O)C(=O)O)C(C)C,,89.85 µg/mL
O=[N+]([O-])c1cccc(-c2ccc3ccccc3n2)c1,ATP,76.68 µM
CN(C(=O)[C@H](Cc1cc(F)cc(F)c1)NC(=O)c1ccc(F)c(C(=O)N[C@@H](Cc2cc(F)cc(F)c2)C(=O)N(C)c2ccc3scnc3c2)c1)c1ccc2scnc2c1,XTT,100 µM
Nc1cccc([C@@H]2C[C@H](N3CCCC3=O)c3cc(I)ccc3N2)c1,ATP,>115 µM
Cc1nc2sc3c(c2c(-c2ccc(Cl)cc2F)c1[C@H](OC(C)(C)C)C(=O)O)CCCC3,,>20 µM
COc1ccc2nc(-c3cccc([N+](=O)[O-])c3)ccc2c1,MTT,122 µM
CN(C(=O)[C@H](Cc1ccccc1)Nc1ncc(-c2cnc(N[C@@H](Cc3ccccc3)C(=O)N(C)c3ccc4scnc4c3)nc2)cn1)c1ccc2scnc2c1,XTT,100 µM
CCOC(C(=O)O)c1c(C)nc2sc3c(c2c1-c1ccc2cnn(C)c2c1)CCCC3,,>20 µM
Nc1cccc([C@@H]2C[C@H](N3CCCC3=O)c3ccccc3N2)c1,ATP,>163 µM
COC(=O)C(CCNC(=O)/C=C/c1cc(O)c(O)c(O)c1)NC(=O)/C=C/c1cc(O)c(O)c(O)c1,neutral red,>69 µM
O=c1[nH]c(=O)n([C@H]2C=C[C@@H](OCP(=O)(O)O)O2)cc1I,,>100 µg/mL
CSCC[C@H](N)C(=O)N[C@@H](CC(C)C)C(=O)N[C@@H](Cc1ccccc1)C(=O)O,,88.44 µg/mL
O=C(/C=C/c1ccc(O)c(O)c1)NCC(NC(=O)/C=C/c1ccc(O)c(O)c1)C(=O)O,neutral red,>30 µM
CCc1cn([C@H]2C=C[C@@H](OCP(=O)(O)O)O2)c(=O)[nH]c1=O,,>100 µg/mL
Cc1nc2sc3c(c2c(-c2cnc4cc[nH]c4c2)c1C(OC(C)(C)C)C(=O)O)CCCC3,,>20 µM
COc1cc2c(c(OC)c1)[C@@H](N1CCCC1=O)C[C@@H](c1cccc([N+](=O)[O-])c1)N2,MTT,>50 µM
CN(C(=O)[C@H](Cc1cc(F)cc(F)c1)NC(=O)c1cccc(S(=O)(=O)N[C@@H](Cc2cc(F)cc(F)c2)C(=O)N(C)c2ccc3scnc3c2)c1)c1ccc2scnc2c1,XTT,100 µM
O=C(C(=O)N1CCN(C(=O)c2ccccc2)CC1)c1c[nH]c2ccc(Br)cc12,XTT,>10 µM
Cc1nc2sc3c(c2c(-c2ccc(C(F)F)cc2)c1[C@H](OC(C)(C)C)C(=O)O)CCCC3,,>20 µM
Cc1c(CCO)c(C2CC2)nn1CC(=O)N[C@@H](Cc1ccccc1)C(=O)N(C)c1ccc2c(c1)OCO2,ATP,>20 µM
CN(C(=O)[C@H](Cc1cc(F)cc(F)c1)NC(=O)CN1c2ccccc2N(CC(=O)N[C@@H](Cc2cc(F)cc(F)c2)C(=O)N(C)c2ccc3scnc3c2)S1(=O)=O)c1ccc2scnc2c1,XTT,100 µM
O=C(C(=O)N1CCN(C(=O)c2c(F)cccc2F)CC1)c1c[nH]c2ccccc12,XTT,>10 µM
O=c1[nH]c(=O)n([C@H]2C=C[C@@H](OCP(=O)(O)O)O2)cc1Cl,,>100 µg/mL
O=C(NCCCC[C@H](NC(=O)c1ccc(O)c(O)c1)C(=O)O)c1ccc(O)c(O)c1,neutral red,>104 µM
C=CCN(C(=O)[C@H](Cc1cc(F)cc(F)c1)NS(=O)(=O)c1ccccc1S(=O)(=O)N[C@@H](Cc1cc(F)cc(F)c1)C(=O)N(CC=C)c1ccc(OC)cc1)c1ccc(OC)cc1,XTT,33.3 µM
Cc1nc2sc3c(c2c(-c2cnc4ccoc4c2)c1C(OC(C)(C)C)C(=O)O)CCCC3,,>20 µM
Cc1ccc2c(c1)[C@@H](N1CCCC1=O)C[C@@H](c1cccc(N)c1)N2,ATP,>156 µM
Cc1cn([C@H]2C=C[C@@H](OCP(=O)(O)O)O2)c(=O)[nH]c1=O,,>100 µg/mL
CCOC(C(=O)O)c1c(C)nc2sc3c(c2c1-c1ccc2cn[nH]c2c1)CCCC3,,>20 µM
Cc1cn([C@H]2C=C[C@@H](CO)O2)c(=O)[nH]c1=S,,>80 µM
CC(=O)OCCc1c(C2CC2)nn(CC(=O)N[C@@H](Cc2ccccc2)C(=O)N(C)c2ccc3c(c2)OCO3)c1C,ATP,>20 µM
COc1ccc(N(C)C(=O)[C@H](Cc2cc(F)cc(F)c2)NC(=O)c2ccc(F)c(C(=O)N[C@@H](Cc3cc(F)cc(F)c3)C(=O)N(C)c3ccc(OC)nc3)c2)cn1,XTT,100 µM
CCc1cccc2c(C(=O)C(=O)N3CCN(C(=O)c4ccccc4)CC3)c[nH]c12,XTT,>10 µM
CSCC[C@H](N)C(=O)N[C@@H](CC(C)C)C(=O)N[C@@H](Cc1ccccc1)C(=O)N[C@H](C(=O)O)C(C)C,,1.09 µg/mL
Cc1cc(C)c2c(c1)N[C@H](c1cccc([N+](=O)[O-])c1)C[C@@H]2N1CCCC1=O,ATP,>137 µM
Cc1nc2cc(-c3c(C(OC(C)(C)C)C(=O)O)c(C)nc4sc5c(c34)CCCC5)ccc2s1,,>20 µM
COc1ccc2c(c1)[C@@H](N1CCCC1=O)C[C@@H](c1cccc([N+](=O)[O-])c1)N2,ATP,47.33 µM
Cc1nc2sc3c(c2c(-c2ccc4c(cnn4C)c2)c1C(OC(C)(C)C)C(=O)O)CCCC3,,>20 µM
Cc1ccc2c(c1)[C@@H](N1CCCC1=O)C[C@@H](c1cccc([N+](=O)[O-])c1)N2,MTT,>50 µM
CCc1ncc(N(C)C(=O)[C@H](Cc2cc(F)cc(F)c2)NC(=O)c2ccc(F)c(C(=O)N[C@@H](Cc3cc(F)cc(F)c3)C(=O)N(C)c3cnc(CC)nc3)c2)cn1,XTT,33.3 µM

The last 5 rows once more:

compound,read by,value
Cc1nc2cc(-c3c(C(OC(C)(C)C)C(=O)O)c(C)nc4sc5c(c34)CCCC5)ccc2s1,,>20 µM
COc1ccc2c(c1)[C@@H](N1CCCC1=O)C[C@@H](c1cccc([N+](=O)[O-])c1)N2,ATP,47.33 µM
Cc1nc2sc3c(c2c(-c2ccc4c(cnn4C)c2)c1C(OC(C)(C)C)C(=O)O)CCCC3,,>20 µM
Cc1ccc2c(c1)[C@@H](N1CCCC1=O)C[C@@H](c1cccc([N+](=O)[O-])c1)N2,MTT,>50 µM
CCc1ncc(N(C)C(=O)[C@H](Cc2cc(F)cc(F)c2)NC(=O)c2ccc(F)c(C(=O)N[C@@H](Cc3cc(F)cc(F)c3)C(=O)N(C)c3cnc(CC)nc3)c2)cn1,XTT,33.3 µM

An empty or dashed field is not shown. Conditions beyond the fields shown may differ between rows.